Source: patent publication US10611795B2, “Methods for viral inactivation using eco-friendly detergents” (priority 2013, dated 2020)

Test system: Xenotropic Murine Leukemia Virus (XMuLV)
Experiment: XMuLV inactivation, TCID50 assay with PG-4 indicator cells (LRV)
Assay type: cell-based
Conditions: MAb1 HCCF, 20° C.

`CCCCOP(=O)(OCCCC)OCCCC` was tested, and the “xMuLV inactivation LRV, Time 1” value (1 h) was 2.9, the “xMuLV inactivation LRV, Time 3” value (3 h) was 3.1 and the “xMuLV inactivation, in words” value (detergent or solvent alone) was “less effective”.
